## DMS reactivity of the HIV-1 5' RNA in monomer and dimer

Reference: Ye et al. 2022, doi:10.1038/s41594-022-00746-2.

Sequence of the HIV-1 NL4-3 5' RNA, positions 1 to 437, as numbered in the source:
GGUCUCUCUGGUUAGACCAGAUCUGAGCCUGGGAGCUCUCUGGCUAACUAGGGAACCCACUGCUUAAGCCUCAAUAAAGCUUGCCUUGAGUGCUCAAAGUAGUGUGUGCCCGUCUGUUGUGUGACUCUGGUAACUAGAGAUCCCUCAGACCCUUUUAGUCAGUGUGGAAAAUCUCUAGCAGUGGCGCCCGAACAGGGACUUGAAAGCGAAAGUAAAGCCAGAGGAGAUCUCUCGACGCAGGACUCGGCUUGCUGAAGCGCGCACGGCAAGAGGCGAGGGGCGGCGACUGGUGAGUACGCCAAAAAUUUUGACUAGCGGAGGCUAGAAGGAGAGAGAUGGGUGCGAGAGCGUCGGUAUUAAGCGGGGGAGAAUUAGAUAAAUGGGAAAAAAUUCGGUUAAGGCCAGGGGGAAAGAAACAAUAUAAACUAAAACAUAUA

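Mutant RNA libraries with 1G, 2G or 3G starts, with or without cap, were folded at 37 °C for 30 min. Monomer and dimer bands were cut from native gels after folding in high salt (300 mM KCl, 5 mM MgCl2) or low salt (40 mM KCl, 0.1 mM MgCl2). Gel slices were treated with 170 mM dimethyl sulfate for 15 min at 37 °C and read by mutational profiling against an ethanol control.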

Scale: normalised reactivity, A and C only; low values point to paired or protected bases, higher values to unpaired ones. One numbering serves 1G, 2G and 3G. A position is written with its base.

With C36 (domain TAR) the assay gave 2G capped high-salt monomer 0.03; 1G capped high-salt dimer 0.07.
With C48 (domain TAR) the assay gave 2G capped high-salt monomer 0.03; 1G capped high-salt dimer 0.14.
With C84 (domain PolyA) the assay gave 2G capped high-salt monomer 0.53; 1G capped high-salt dimer 0.74.
With A132 (domain PBS) the assay gave 2G capped high-salt monomer 0.51; 1G capped high-salt dimer 0.59.
With C134 (domain PBS) the assay gave 2G capped high-salt monomer 0.16; 1G capped high-salt dimer 0.15.
With A149 (domain PBS) the assay gave 2G capped high-salt monomer 0.11; 1G capped high-salt dimer 0.07.
With A177 (domain PBS) the assay gave 2G capped high-salt monomer 0.24; 1G capped high-salt dimer 0.24.
With C187 (domain PBS) the assay gave 2G capped high-salt monomer 0.03; 1G capped high-salt dimer 0.04.
With C193 (domain PBS) the assay gave 2G capped high-salt monomer 0.85; 1G capped high-salt dimer 0.76.
With A204 (domain PBS) the assay gave 2G capped high-salt monomer 0.70; 1G capped high-salt dimer 0.75.
With C207 (domain PBS) the assay gave 2G capped high-salt monomer 0.45; 1G capped high-salt dimer 0.63.
With A211 (domain PBS) the assay gave 2G capped high-salt monomer 0.43; 1G capped high-salt dimer 0.51.
With C219 (domain antiPAS) the assay gave 2G capped high-salt monomer 0.05; 1G capped high-salt dimer 0.05.
With C233 (domain CU) the assay gave 2G capped high-salt monomer 0.27; 1G capped high-salt dimer 0.15.
With A235 the assay gave 2G capped high-salt monomer 0.70; 1G capped high-salt dimer 0.79.
With C236 the assay gave 2G capped high-salt monomer 0.53; 1G capped high-salt dimer 0.43.
With A242 the assay gave 2G capped high-salt monomer 0.89; 1G capped high-salt dimer 1.11.
With C245 (domain SL1) the assay gave 2G capped high-salt monomer 0.23; 1G capped high-salt dimer 0.06.
With C252 (domain SL1) the assay gave 2G capped high-salt monomer 0.19; 1G capped high-salt dimer 0.04.
With A256 (domain SL1) the assay gave 2G capped high-salt monomer 0.84; 1G capped high-salt dimer 1.13.
With A263 (domain SL1) the assay gave 2G capped high-salt monomer 0.23; 1G capped high-salt dimer 0.91.
With A327 the assay gave 2G capped high-salt monomer 1.01; 1G capped high-salt dimer 1.07.
With A379 the assay gave 2G capped high-salt monomer 0.60; 1G capped high-salt dimer 0.61.
With A380 the assay gave 2G capped high-salt monomer 0.85; 1G capped high-salt dimer 0.84.
With A390 the assay gave 2G capped high-salt monomer 0.96; 1G capped high-salt dimer 0.88.
With A412 the assay gave 2G capped high-salt monomer 0.52; 1G capped high-salt dimer 0.51.
With A424 the assay gave 2G capped high-salt monomer 0.33; 1G capped high-salt dimer 0.41.
With A429 the assay gave 2G capped high-salt monomer 0.76; 1G capped high-salt dimer 0.72.
With C432 the assay gave 2G capped high-salt monomer 0.93; 1G capped high-salt dimer 0.94.
With A433 the assay gave 2G capped high-salt monomer 0.77; 1G capped high-salt dimer 0.74.